Assay results as given in article PMC8878324, “Evaluation of New Antimicrobial Agents Based on tris(1H-Indol-3-yl)methylium Salts: Activity, Toxicity, Suppression of Experimental Sepsis in Mice” (Pharmaceuticals, 2022).

Tested on: S. aureus 10
Assay: Model of staphylococcal sepsis in mice
Type: in vivo
Experimental: To determine the ability of drugs to suppress staphylococcal sepsis, a clinical isolate of S. aureus 10, lacking drug resistance and adapted for use in animals, was used. Animals, divided into several experimental groups, were intravenously infected with a lethal dose of S. aureus (0.1 mL each) (Groups 1–5). […] Along with the testing of compounds of the trisndolylmethylium class, a similar experiment was carried out with levofloxacin, taken as a reference drug for a separate group of animals (Group 4). The control group of animals received an intravenous injection of 5% glucose solution instead of the tested preparations (Group 5). Another control group, which also received a single injection of 5% glucose solution, consisted of animals that were not exposed to infection (Group 6). To study each drug, 110–150 animals were required, which were divided into small subgroups of 10 mice each to test various doses of the compounds studied. The number of dead animals and the time of their death were recorded daily, and the appearance of the animals and their weight were assessed. The duration of the experiment was 14 days.
The study was conducted on adult female SHK mice (18–20 g) obtained from the animal breeding unit of the FMBA (Scientific Center for Biomedical Technologies of the Federal Biomedical Agency, Moscow, Russia). The animals were randomly divided into groups (n = 6 for the study of acute toxicity, n = 10 (or 8) to study the efficacy of suppressing staphylococcal sepsis). […]
The experiment used a strain of S. aureus 10, having no drug resistance and adapted for use in animals. […] LD100 dose of staphylococcus detected in the experiment was 8.0 × 10^8 CFU/mouse, which was then used for infecting animals.
The chemotherapeutic efficacy of tris(indolyl)methane derivatives was determined in a model of staphylococcal sepsis in mice. […] The number of dead animals and the time of their death were recorded daily, and the body weight of the animals was recorded three times a week. Their feed intake was monitored, and clinical signs of animal health were assessed daily. […]

OCCCCCn1cc([C+](c2cn(CCCCCO)c3ccccc23)c2cn(CCCCCO)c3ccccc23)c2ccccc21.[Cl-] [Compound 1, tris(1-(5-Hydroxypentyl)-1H-indol-3-yl) methylium chloride]
TI (therapeutic index, ratio of LD50 to ED50): 3.45

CCCn1cc([C+](c2cn(CCC)c3ccccc23)c2cn(C3=C(N)C(=O)NC3=O)c3ccccc23)c2ccccc21.[Cl-] [Compound 2, (1-(4-Amino-2,5-dioxo-2,5-dihydro-1H-pyrrol-3-yl)-1H-indol-3-yl)bis(1-propyl-1H-indol-3-yl) methylium chloride]
TI (therapeutic index, ratio of LD50 to ED50): 2.3

CCCn1cc([C+](c2cn(CCC)c3ccccc23)c2cn(C3=C(N(C)C)C(=O)NC3=O)c3ccccc23)c2ccccc21 [Compound 3, 1-(4-Dimethylamino-2,5-dioxo-2,5-dihydro-1H-pyrrol-3-yl) -1H-indol-3-yl) bis(1-propyl-1H-indol-3-yl) methylium chloride]
TI (therapeutic index, ratio of LD50 to ED50): 22.2
